Measured data: PubChem BioAssay AID504761 (Drosophila RNAi Screening Center, 2011)

- Purpose: 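Genome-wide fly cell screen for genes dengue virus requires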 (primary screen)
- Cells: D.Mel-2 cells from Drosophila
- Reagents: long dsRNA against Drosophila genes
- Challenge: infection with dengue virus type 2; dose and infection time not stated
- Detection: 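Per well on two replicate plates, imaging gave the percent of cells positive for viral envelope protein, ranked by infection, and a nuclear count of cells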
- Reading the numbers: infection score: higher = more virus-infected cells; cell count: higher = more cells in the well
- Rule for the call: 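Low infection ranks in the two replicates (chance level up to 0.065) followed by a retest with a 1.5-fold or larger significant decrease, p below 0.05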
- Calls: active = confirmed: knock-down lowers infection; inactive = not picked or not confirmed
In all, the deposit lists about 22,000 reagents; below is a random part of those with a known target gene and a result. In the full data, 116 (0.52%) got an active call. 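Calls depend on retest data that are not deposited; infection was ranked per plate without normalising between plates; the unit of the infection score is not given.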 Raw values are not corrected between plates. Names joined by + are all predicted targets of the reagent. Not all columns of the deposit are shown. The record does not give: the amount of reagent, the time to read-out.

With Jon65Aiv [DRSC10644], what was measured?
infection score, replicate 1: 3.82; cell count, replicate 1: 6129; Call: inactive

Which result is listed for Jon65Aiv [DRSC25179]?
infection score, replicate 1: 15.6; cell count, replicate 1: 5814; Call: inactive

With ord [DRSC04706], what does the deposit list?
infection score, replicate 1: 5.49; cell count, replicate 1: 1422; Call: inactive

How did the screen score otu [DRSC18811]?
infection score, replicate 1: 4.92; cell count, replicate 1: 5993; Call: inactive

What is on record for otu [DRSC27953]?
infection score, replicate 1: 16.2; cell count, replicate 1: 6305; Call: inactive

For CG10265 [DRSC05986], what was measured?
infection score, replicate 1: 17.8; cell count, replicate 1: 4982; Call: inactive

How did the screen score CG10265 [DRSC21680]?
infection score, replicate 1: 2.35; cell count, replicate 1: 6055; Call: inactive

For senju [DRSC02366], what does the deposit list?
infection score, replicate 1: 2.16; cell count, replicate 1: 1483; Call: inactive

With ase [DRSC18739], what does the deposit list?
infection score, replicate 1: 1.79; cell count, replicate 1: 6661; Call: inactive

With Cpr23B [DRSC23504], how do the results read?
infection score, replicate 1: 1.15; cell count, replicate 1: 6170; Call: inactive

4 of these entries, reformatted.
{"Target gene":"ord","amplicon":"DRSC04706","infection score, replicate 1":5.49,"cell count, replicate 1":1422,"Call":"inactive"}
{"Target gene":"otu","amplicon":"DRSC18811","infection score, replicate 1":4.92,"cell count, replicate 1":5993,"Call":"inactive"}
{"Target gene":"otu","amplicon":"DRSC27953","infection score, replicate 1":16.2,"cell count, replicate 1":6305,"Call":"inactive"}
{"Target gene":"CG10265","amplicon":"DRSC05986","infection score, replicate 1":17.8,"cell count, replicate 1":4982,"Call":"inactive"}

Additional entries follow:
For CG14929 + CG4970 [DRSC02411], how do the results read?
infection score, replicate 1: 27.6; cell count, replicate 1: 6133; Call: inactive

What is on record for CG14929 + CG4970 [DRSC02796]?
infection score, replicate 1: 11.2; cell count, replicate 1: 3809; Call: inactive

How did the screen score CG10353 [DRSC19354]?
infection score, replicate 1: 4.21; cell count, replicate 1: 6275; Call: inactive

For CG10353 [DRSC29888], what was measured?
infection score, replicate 1: 20.4; cell count, replicate 1: 6089; Call: inactive

For Cipc [DRSC14898], what does the deposit list?
infection score, replicate 1: 3.06; cell count, replicate 1: 6608; Call: inactive

For Cipc [DRSC14900], what was measured?
infection score, replicate 1: 4.69; cell count, replicate 1: 6721; Call: inactive

For CG17580 [DRSC06683], how do the results read?
infection score, replicate 1: 10.8; cell count, replicate 1: 6387; Call: inactive

How did the screen score CG17580 [DRSC27009]?
infection score, replicate 1: 20.1; cell count, replicate 1: 6701; Call: inactive

How did the screen score CG43980 [DRSC11500]?
infection score, replicate 1: 4.33; cell count, replicate 1: 6092; Call: inactive

Which result is listed for CG43980 [DRSC11646]?
infection score, replicate 1: 2.89; cell count, replicate 1: 6376; Call: inactive

With CG43980 [DRSC26495], how do the results read?
infection score, replicate 1: 3.62; cell count, replicate 1: 5722; Call: inactive

For rst [DRSC17243], how do the results read?
infection score, replicate 1: 2.78; cell count, replicate 1: 6863; Call: inactive

For rst [DRSC18828], what was measured?
infection score, replicate 1: 4.43; cell count, replicate 1: 6115; Call: inactive

With rst [DRSC25716], how do the results read?
infection score, replicate 1: 1.66; cell count, replicate 1: 5960; Call: inactive

Which result is listed for CG15550 [DRSC15088]?
infection score, replicate 1: 6.03; cell count, replicate 1: 6417; Call: inactive

Which result is listed for CG15550 [DRSC29401]?
infection score, replicate 1: 9.74; cell count, replicate 1: 1170; Call: inactive

Which result is listed for Tom40 [DRSC18796]?
cell count, replicate 1: 397; Call: inactive
